Anti-infective test results gathered from many reports (values: NIAID ChemDB through PubChem).

Common to all: tests in culture; organism: Candida albicans; read-out: MIC

An empty or dashed field is not shown. Conditions beyond the fields shown may differ between rows.

compound,strain,result
CCCCCCCCOc1ccc(C(=O)NC2C[C@@H](O)[C@@H](O)NC(=O)C3[C@@H](O)[C@@H](C)CN3C(=O)C(C(C)O)NC(=O)C([C@H](O)[C@@H](O)c3ccc(O)cc3)NC(=O)C3C[C@@H](O)CN3C(=O)C(C(C)O)NC2=O)cc1,Lieberman,0.5 µg/mL
C[C@@H](n1cnnn1)[C@@](O)(Cn1cncn1)c1ccc(F)cc1F,TA,>100 µg/mL
COc1ccccc1-c1c(C#N)c(OC)nc2c1CSc1ccccc1-2,-,25 µg/mL
C[C@H](n1cnnn1)[C@@](O)(Cn1cncn1)c1ccc(F)cc1F,TA,>100 µg/mL
Brc1ccc(-c2n[nH]c3c2CCCC3)cc1,264/624,7.8 µg/mL
CCCCCOc1ccc(-c2ccc(-c3ccc(C(=O)N[C@H]4C[C@@H](O)[C@@H](O)NC(=O)[C@@H]5[C@@H](O)[C@@H](C)CN5C(=O)[C@H]([C@H](C)O)NC(=O)[C@H]([C@H](O)[C@@H](O)c5ccc(O)cc5)NC(=O)[C@@H]5C[C@@H](O)CN5C(=O)[C@H]([C@H](C)O)NC4=O)cc3)cc2)cc1,-,9 µg/mL
CCCC(C)C(OC(=O)/C=C/c1ccccc1)C(C)C(O)C/C=C/C=C\C(N)=O,ATCC 10231,25 µg/mL
CCCOc1nc2c(c(-c3ccc4c(c3)OCO4)c1C#N)CSc1ccc(Cl)cc1-2,-,50 µg/mL
CCC(C)n1ncn(-c2ccc(N3CCN(c4ccc(OC[C@H]5CO[C@](Cn6cncn6)(c6ccc(Cl)cc6Cl)O5)cc4)CC3)cc2)c1=O,Isolate 95-145,0.25 µg/mL
C[C@H](n1ccnn1)[C@@](O)(Cn1cncn1)c1ccccc1F,TA,25 µg/mL
COc1c(C(=O)/C=C(\O)c2ccccc2)ccc2sccc12,-,>50 µg/mL
Cc1c(O)cccc1C(=O)N[C@@H](CSc1ccccc1)[C@H](O)CN1C[C@H]2CCCC[C@H]2C[C@H]1C(=O)NC(C)(C)C,I5F,>64 µg/mL
C[C@H]1[C@H](O)[C@@H](C)/C=C/C=C/C=C/C=C/C=C/C=C/C=C/[C@H](O[C@@H]2O[C@H](C)[C@@H](O)[C@H](N)[C@@H]2O)C[C@@H]2O[C@](O)(C[C@@H](O)C[C@@H](O)CC[C@H](O)[C@@H](O)C[C@@H](O)CC(=O)O[C@H]1C)C[C@H](O)[C@H]2C(=O)O,Isolate 5,0.25 µg/mL
c1coc(-c2n[nH]c3c2CCCC3)c1,264/624,125 µg/mL
Nc1ccc(Cl)cc1C(=O)Nc1ccccc1,ATCC 44859,>500 µM
C[C@@H](n1ccnn1)[C@@](O)(Cn1cncn1)c1ccccc1F,TA,>100 µg/mL
COc1nc2c(c(-c3ccccc3)c1C#N)CSc1ccccc1-2,-,50 µg/mL
N#Cc1ccccc1/C=N/Nc1ccnc2cc(Cl)ccc12,-,100 µg/mL
Nc1ccccc1C(=O)Nc1ccc(Br)cc1,ATCC 44859,1000 µM
OC(Cn1cncn1)(Cn1cncn1)c1ccc(F)cc1F,ATCC 90028,3.1 µM
COc1ccc(-c2c(C#N)c(OC)nc3c2CSc2ccccc2-3)cc1,-,50 µg/mL
Nc1ccc(Cl)cc1C(=O)Nc1ccc(F)cc1,ATCC 44859,500 µM
COc1ccc(C(=O)CC(=O)c2ccc3sccc3c2OC)cc1,-,12.5 µg/mL
C=C(c1ccccc1OCC(C)C)n1ccnc1,KE-2,25 µg/mL
COc1ccc(/C=C/C(=O)c2ccc3sccc3c2O)cc1,-,>50 µg/mL
O=[N+]([O-])c1cccc(/C=N/Nc2ccnc3cc(Cl)ccc23)c1,-,>200 µg/mL
CC[C@@H]1[C@@H](Cn2cncn2)[C@H](COc2ccc(OC(F)(F)F)cc2)CC[C@@]1(C)CCSc1nccn1C,CY3003,0.5 µg/mL
COc1c(-c2ccccc2)oc2c(ccc3sccc32)c1=O,-,12.5 µg/mL
C[C@H](n1cnnn1)[C@](O)(Cn1cncn1)c1ccc(F)cc1F,TA,100 µg/mL
Oc1cccc(C=NNc2ccnc3cc(Cl)ccc23)c1,-,>200 µg/mL
C[C@@H]1[C@H](O)[C@@H](C)/C=C/C=C/C=C/C=C/C=C/C=C/C=C/[C@H](OC2O[C@H](C)[C@@H](O)[C@H](N(CCCN)CCCN)[C@@H]2O)C[C@@H]2O[C@](O)(C[C@@H](O)C[C@@H](O)[C@H](O)CC[C@@H](O)C[C@@H](O)CC(=O)O[C@H]1C)C[C@H](O)[C@H]2C(=O)O,DSY654,0.1 µM
CCC(O)/C=C/C=C/C=C/C(=O)OC[C@H]1O[C@@H](O[C@H]2[C@H](OC(=O)/C=C/C=C/CC(O)/C(C)=C/C=C/CCC(C)CC)[C@@H](O)[C@@]3(OCc4cc(O)cc(O)c43)O[C@@H]2CO)[C@H](O)[C@@H](O)[C@H]1O,83-2-14,1.6 µg/mL
COc1ccc2c(c1)-c1nc(OC)c(C#N)c(-c3ccc4c(c3)OCO4)c1CS2,-,25 µg/mL
Nc1ccccc1C(=O)Nc1ccc(F)cc1,ATCC 44859,>1000 µM

5 of the rows above, restated:

compound	strain	result
Nc1ccc(Cl)cc1C(=O)Nc1ccc(F)cc1	ATCC 44859	500 µM
CCC(C)n1ncn(-c2ccc(N3CCN(c4ccc(OC[C@H]5CO[C@](Cn6cncn6)(c6ccc(Cl)cc6Cl)O5)cc4)CC3)cc2)c1=O	Isolate 95-145	0.25 µg/mL
COc1ccc2c(c1)-c1nc(OC)c(C#N)c(-c3ccc4c(c3)OCO4)c1CS2	-	25 µg/mL
COc1nc2c(c(-c3ccccc3)c1C#N)CSc1ccccc1-2	-	50 µg/mL
C[C@H]1[C@H](O)[C@@H](C)/C=C/C=C/C=C/C=C/C=C/C=C/C=C/[C@H](O[C@@H]2O[C@H](C)[C@@H](O)[C@H](N)[C@@H]2O)C[C@@H]2O[C@](O)(C[C@@H](O)C[C@@H](O)CC[C@H](O)[C@@H](O)C[C@@H](O)CC(=O)O[C@H]1C)C[C@H](O)[C@H]2C(=O)O	Isolate 5	0.25 µg/mL